Experimental data reported in patent US20070161078A1.

Target: MBP.NS1 H3N2 (RSKV) (influenza A H3N2) (UniProt Q67253)
Test: G assay titration

DLG1 d1,2 (from UniProt Q12959 218-410) showed an EC50 of 20.8 µg/mL.

Work on “PSD95 d1,2,3 (from UniProt P78352 59-402)” yielded an EC50 of 25 µg/mL.
